What was measured:
[1] = test system: AFB1-ScFV-AP bifunctional fusion protein; settings: kit for AFB1, relative to AFB1
[2] = test system: DON-ScFV-AP bifunctional fusion protein; settings: kit for DON, relative to DON

fumonisin B3
Cross-reaction rate (%) [1]: <1%

ochratoxin A
Cross-reaction rate (%) [1]: <1%
Cross-reaction rate (%) [2]: <1%

3-acetyldeoxynivalenol
Cross-reaction rate (%) [1]: <1%

deoxynivalenol-3-glucoside
Cross-reaction rate (%) [1]: <1%

CC1=C[C@H]2O[C@@H]3[C@H](O)[C@@H](O)[C@](C)([C@@]2(CO)[C@H](O)C1=O)[C@]31CO1 [NIV, nivalenol]
Cross-reaction rate (%) [1]: <1%
Cross-reaction rate (%) [2]: <1%

C[C@H]1CCCC(=O)CCC/C=C/c2cc(O)cc(O)c2C(=O)O1 [ZEN, zearalenone]
Cross-reaction rate (%) [1]: <1%
Cross-reaction rate (%) [2]: <1%

fumonisin B1
Cross-reaction rate (%) [1]: <1%

CC1=C[C@H]2O[C@@H]3[C@H](O)C[C@](C)([C@@]2(CO)[C@H](O)C1=O)[C@]31CO1 [DON, Deoxynivalenol]
Cross-reaction rate (%) [1]: <1%

fumonisin B2
Cross-reaction rate (%) [1]: <1%

15-acetyldeoxynivalenol
Cross-reaction rate (%) [1]: <1%
Cross-reaction rate (%) [2]: 3.7%

From patent publication US12306178B2 (priority 2022, dated 2025)
